Compound potency records, mixed from different reports. Data source: NIAID ChemDB in PubChem.

Shared fields: whole-cell or culture tests; species: HIV-1; method: cytopathic effect / MTT; endpoint: fold resistance

Fold resistance has wild type as its base. Conditions beyond the fields shown may differ between rows. Blank or dashed fields: not listed here.

{"smiles": "Fc1cccc(F)c1C1OCc2nc3ccccc3n21", "changes": "RT-Y181C", "strain or isolate": "Pyridinone-resistant (RT Y181C)", "cell line": "CEM", "value": "≥3.64"}
{"smiles": "N#Cc1ccc(Nc2nc(N)nc(Oc3c(Cl)cccc3Cl)n2)cc1", "changes": "RT-Y188L", "strain or isolate": "NNRTI-resistant (RT Y188L)", "cell line": "MT-4", "value": "1066"}
{"smiles": "Nc1cccc2c1nc(-c1c(F)cccc1F)n2Cc1c(F)cccc1F", "changes": "RT-L74V", "cell line": "MT-4", "value": "0.6"}
{"smiles": "CCCCN(C)C(=O)Oc1nsnc1-c1c(Cl)cccc1Cl", "changes": "RT-Y181C", "strain or isolate": "IIIB-R (RT-Y181C)", "cell line": "MT-4", "value": "365"}
{"smiles": "Nc1ccn([C@H]2CC[C@@H](CO)O2)c(=O)n1", "changes": "RT-M184I", "strain or isolate": "RF", "cell line": "MT-4", "value": "1"}
{"smiles": "CC(=O)Nc1cccc2c1nc(-c1c(F)cccc1F)n2Cc1c(F)cccc1F", "changes": "RT-V108I", "cell line": "MT-4", "value": "17.1"}
{"smiles": "CCCCN(CC)C(=O)Oc1nsnc1-c1c(Cl)cccc1Cl", "changes": "RT-Y181C", "strain or isolate": "IIIB-R (RT-Y181C)", "cell line": "MT-4", "value": ">133"}
{"smiles": "CC(=O)N(C)c1cccc2c1nc(-c1c(F)cccc1F)n2Cc1c(F)cccc1F", "changes": "RT-L100I", "cell line": "MT-4", "value": "0.97"}
{"smiles": "Fc1cccc(F)c1Cn1c(-c2c(F)cccc2F)nc2c(Br)cccc21", "changes": "RT-Y188C", "cell line": "MT-4", "value": "6.8"}
{"smiles": "CN(C)C(=O)Oc1nsnc1-c1ccccc1", "changes": "RT-Y181C", "strain or isolate": "IIIB-R (RT-Y181C)", "cell line": "MT-4", "value": ">7.24"}
{"smiles": "CC(=O)Nc1cccc2c1nc(-c1c(F)cccc1F)n2Cc1c(F)cccc1F", "changes": "RT-K101E", "cell line": "MT-4", "value": ">40"}
{"smiles": "CC(C)=CCN1Cc2cc(Cl)cc3[nH]c(=S)n(c23)C[C@@H]1C", "changes": "RT-L100I", "strain or isolate": "13MB1 (TIBO-resistant RT L100I)", "cell line": "MT-4", "value": "0"}
{"smiles": "Cc1cc(C)cc(S(=O)(=O)c2c(C(=O)NNCCO)[nH]c3ccc(Cl)cc23)c1", "changes": "RT-K103N Y181C", "cell line": "MT-4", "value": "3200"}
{"smiles": "CCCN(C)C(=O)Oc1nsnc1-c1c(Cl)cccc1Cl", "changes": "RT-Y181C", "strain or isolate": "IIIB-R (RT-Y181C)", "cell line": "MT-4", "value": "200"}
{"smiles": "Clc1nc(Cl)c2[nH]cnc2n1", "changes": "RT M41L A62V T69SSS insertion V75V/A M184I L210W T215Y", "strain or isolate": "SW3-10125R", "cell line": "MT-4", "value": "6"}
{"smiles": "COC(=O)c1cccc2c1nc(-c1c(F)cccc1F)n2Cc1c(F)cccc1F", "changes": "RT-Y188H", "cell line": "MT-4", "value": "1.58"}
{"smiles": "c1cc(CN2CCCNCCNCCCNCC2)ccc1CN1CCCNCCNCCCNCC1", "changes": "L-CA resistant", "strain or isolate": "NL4-3", "cell line": "MT-4", "value": "2"}
{"smiles": "Cc1cn([C@H]2C[C@H](N=[N+]=[N-])[C@@H](CO)O2)c(=O)[nH]c1=O", "changes": "RT-Y188L", "strain or isolate": "1506-RS (RT-Y188L)", "cell line": "MT-4", "value": "1.4"}
{"smiles": "CCc1c(C)[nH]c(=O)c(N(C)C)c1C(=O)c1cccc(C#N)c1", "changes": "RT-E138K", "cell line": "MT-4", "value": "2"}
{"smiles": "COc1c(O)c(I)c2c(c1OC)-c1c(c(I)c(O)c(OC)c1OC)C[C@H](C)[C@H](C)C2", "changes": "RT-K103N Y181C", "strain or isolate": "A17", "cell line": "MT-4", "value": "33.5"}
{"smiles": "COC(=O)N[C@@H](Cc1c[nH]c2ccccc12)C(=O)NCCCC[C@@H](CO)N(CC(C)C)S(=O)(=O)c1ccc(N)cc1", "changes": "PR-M46I V82T I84V 10R 63P", "strain or isolate": "NL4-3", "cell line": "MT-4", "value": "3.6"}
{"smiles": "Fc1cccc(Cl)c1C1OCc2nc3ccccc3n21", "changes": "RT-Y181C", "strain or isolate": "Pyridinone-resistant (RT Y181C)", "cell line": "CEM", "value": "≥3.86"}
{"smiles": "Cc1cn([C@H]2C[C@H](N=[N+]=[N-])[C@@H](CO)O2)c(=O)[nH]c1=O", "changes": "RT-M184I", "strain or isolate": "RF", "cell line": "MT-4", "value": "0.268"}
{"smiles": "Cc1cc(C)cc(S(=O)(=O)c2c(C(N)=O)[nH]c3ccc(Cl)cc23)c1", "changes": "RT-K103N Y181C", "cell line": "MT-4", "value": "133"}
{"smiles": "COc1cc(C(=O)N[C@H](C(=O)NCCCC[C@@H](CO)N(CC(C)C)S(=O)(=O)c2ccc(N)cc2)C(c2ccccc2)c2ccccc2)ccc1O", "changes": "PR-M46I V82T I84V L10R L63P", "strain or isolate": "4596 PR-M46I V82T I84V L10R L63P", "cell line": "MT-4", "value": "1.64"}
{"smiles": "Cc1ccc(S(=O)(=O)c2c(C(=O)NNCCO)[nH]c3ccc(Cl)cc23)c(C)c1", "changes": "RT-K103N Y181C", "cell line": "MT-4", "value": ">250"}
{"smiles": "CCc1c(C)[nH]c(=O)c(N(C)C)c1C(=O)c1cccc(/C(C)=C/C#N)c1", "changes": "RT-Y181C", "cell line": "MT-4", "value": "63"}
{"smiles": "N#Cc1ccc(Nc2nc(Cc3c(Cl)cccc3Cl)nc(NO)n2)cc1", "changes": "RT-L100I K103N", "strain or isolate": "NNRTI-resistant (RT L100I K103N)", "cell line": "MT-4", "value": "2500"}
{"smiles": "Cc1cccc(S(=O)(=O)c2c(C(=O)NNCCO)[nH]c3ccc(Cl)cc23)c1", "changes": "RT-Y181C", "cell line": "MT-4", "value": "14"}
{"smiles": "CCc1c(C)[nH]c(=O)c(N(C)C)c1C(=O)c1cccc(Br)c1", "changes": "RT-K101E K103N", "cell line": "MT-4", "value": "37"}
{"smiles": "O=S(=O)(O)OC1C(OS(=O)(=O)O)C(OS(=O)(=O)O)C(OS(=O)(=O)O)C(OS(=O)(=O)O)C1OS(=O)(=O)O", "changes": "GP120-K320Q", "strain or isolate": "NL4-3", "cell line": "MT-4", "value": ">25"}
{"smiles": "CCc1c(C)[nH]c(=O)c(N(C)C)c1Cc1cccc(C)c1", "changes": "RT-Y181C", "cell line": "MT-4", "value": "30"}
{"smiles": "COc1ccc(S(=O)(=O)O)cc1N=Nc1c(S(=O)(=O)O)cc2cc(Nc3nc(Nc4ccccc4)nc(Nc4cc(C)c(N=Nc5cc(S(=O)(=O)O)cc6cc(S(=O)(=O)O)cc(O)c56)cc4OC)n3)ccc2c1O", "changes": "GP41-L33S", "strain or isolate": "NL4-3", "cell line": "MT-4", "value": "0.5"}

5 of the rows above, restated:

smiles	changes	strain or isolate	cell line	value
O=S(=O)(O)OC1C(OS(=O)(=O)O)C(OS(=O)(=O)O)C(OS(=O)(=O)O)C(OS(=O)(=O)O)C1OS(=O)(=O)O	GP120-K320Q	NL4-3	MT-4	>25
Cc1ccc(S(=O)(=O)c2c(C(=O)NNCCO)[nH]c3ccc(Cl)cc23)c(C)c1	RT-K103N Y181C	-	MT-4	>250
CCc1c(C)[nH]c(=O)c(N(C)C)c1C(=O)c1cccc(C#N)c1	RT-E138K	-	MT-4	2
CCc1c(C)[nH]c(=O)c(N(C)C)c1Cc1cccc(C)c1	RT-Y181C	-	MT-4	30
Cc1cn([C@H]2C[C@H](N=[N+]=[N-])[C@@H](CO)O2)c(=O)[nH]c1=O	RT-Y188L	1506-RS (RT-Y188L)	MT-4	1.4